This is an account of results in paper PMC10227026, “Rapid evolution of A(H5N1) influenza viruses after intercontinental spread to North America” (2023).

Amino acid sequences for entries named in this document (tags omitted). A change or cut given only in a name is not applied to a line headed by its entry.
UniProt Q9Q0U7: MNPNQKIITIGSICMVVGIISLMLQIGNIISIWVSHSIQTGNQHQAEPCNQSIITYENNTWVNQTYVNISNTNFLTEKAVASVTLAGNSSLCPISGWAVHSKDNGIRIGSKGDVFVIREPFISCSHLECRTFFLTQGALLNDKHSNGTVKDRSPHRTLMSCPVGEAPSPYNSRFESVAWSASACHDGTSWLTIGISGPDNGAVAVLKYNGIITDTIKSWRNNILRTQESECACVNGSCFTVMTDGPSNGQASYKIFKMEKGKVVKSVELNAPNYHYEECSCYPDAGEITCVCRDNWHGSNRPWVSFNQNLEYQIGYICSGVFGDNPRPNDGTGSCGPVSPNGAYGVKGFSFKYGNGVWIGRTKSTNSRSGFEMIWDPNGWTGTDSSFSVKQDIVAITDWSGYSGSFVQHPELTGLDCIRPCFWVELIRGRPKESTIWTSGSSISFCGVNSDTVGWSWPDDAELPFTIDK

Broadly, the EC50 is the concentration at which the effect is half-maximal. High values mean weaker potency, low ones greater potency. Usually IC50 stands for the concentration that inhibits the measured activity by half. Read a low IC50 as greater potency.

In assay [1] the test system is rg-A/CA/04 (PA I38-WT) (H1N1)pdm09.
For assay [2], the system named is Wigeon/SC/21 (H5N1).
Assay [3] has as its system Ck/NL/21 (H5N1).
The subject of assay [4] is Scaup/GA/22 (H5N1).
For assay [5], the system named is Eagle/FL/22 (H5N1).
Assay [6] deals with NA of Eagle/NC/22 (H5N1) (Influenza A virus, UniProt Q9Q0U7).
Assay [7] deals with NA of Ck/NL/21 (H5N1) (Influenza A virus, UniProt Q9Q0U7).
In assay [8] the target is NA of Wigeon/SC/21 (H5N1) (Influenza A virus, UniProt Q9Q0U7).
The target of assay [9] is NA of Eagle/FL/22 (H5N1) (Influenza A virus, UniProt Q9Q0U7).
Assay [10] addresses NA of Hawk/NC/22 (H5N1) (Influenza A virus, UniProt Q9Q0U7).
The target of assay [11] is NA of Scaup/GA/22 (H5N1) (Influenza A virus, UniProt Q9Q0U7).

In the case of `O=C1c2c(O)c(=O)ccn2N([C@@H]2c3ccccc3SCc3c2ccc(F)c3F)[C@@H]2COCCN12`, the EC50 in assay [1] came to 0.19 nM; in assay [2], 0.16 nM; in assay [3], 0.09 nM; in assay [4], 0.17 nM; in assay [5] it was 0.22 nM.
Consider oseltamivir carboxylate, for which the 50% inhibitory concentration (IC50) in assay [6] is 1.07 nM; in [7], 1.26 nM; in assay [8], 1.25 nM; in assay [9], 0.98 nM; in assay [10], 1.34 nM; in [11], 1.13 nM.
